Results of unrelated studies side by side (data: NIAID ChemDB).

Common to all: growth or infection tests; organism: Human cytomegalovirus; endpoint: EC90

An empty or dashed field is not shown. Lines come from different laboratories, so protocols vary. ECn: concentration that inhibits the pathogen or its effect by n%.

smiles,read by,cells,strain or isolate,value
OC[C@H]1O[C@@H](n2c(Br)nc3cc(Cl)c(Cl)cc32)[C@H](O)[C@@H]1O,virus yield,HFF,AD169,0.36 µM
CCCCNc1cc(=O)n2c3c1nnn3C[C@H]1O[C@@H]2[C@H](O)[C@@H]1O,,Huh7,,>100 µM
O=C(NCc1ccc(Cl)cc1)c1c[nH]c2ccc(CCCO)cc2c1=O,plaque count,,AD169,2.2 µM
CN(C)c1cc(=O)n2c3c1nnn3C[C@H]1O[C@@H]2[C@H](O)[C@@H]1O,,Huh7,,86.1 µM
Nc1nc2c(ncn2COC(CO)CO)c(=O)[nH]1,plaque count,,VR6189 (ganciclovir-susceptible),3.5 µM
Nc1cc(=O)n2c3c1nnn3C[C@H]1O[C@@H]2[C@H](O)[C@@H]1O,,Huh7,,29.7 µM
CC(C)Nc1nc2cc(Cl)c(Cl)cc2n1[C@H]1O[C@@H](CO)[C@H](O)[C@@H]1O,virus yield,HFF,AD169,1.1 µM
Cn1cc(C(=O)NCc2ccc(Cl)cc2)c(=O)c2cc(CN3CCOCC3)ccc21,plaque count,HFF,DAVIS,3 µM
Nc1nc2c(ncn2COC(CO)CO)c(=O)[nH]1,plaque count,HFF,AD169,58.1 µM
CCCNc1cc(=O)n2c3c1nnn3C[C@H]1O[C@@H]2[C@H](O)[C@@H]1O,,Huh7,,>100 µM
NC(=S)N/N=C/c1ccc(OC(F)(F)F)cc1,cytopathic effect,Human foreskin fibroblasts,AD169,>60 µM
Nc1ccn(C[C@@H](CO)OCP(=O)(O)O)c(=O)n1,plaque count,HFF,AD169,3.7 µM
Nc1nc2c(ncn2COC(CO)CO)c(=O)[nH]1,virus yield,,TOWNE,0.4 µM
Nc1nc2c(ncn2COC(CO)CO)c(=O)[nH]1,virus yield,HFF,2916R (1263W94-resistant),1 µM

2 of the rows above, restated:

smiles | read by | cells | strain or isolate | value
Nc1nc2c(ncn2COC(CO)CO)c(=O)[nH]1 | plaque count | HFF | AD169 | 58.1 µM
CN(C)c1cc(=O)n2c3c1nnn3C[C@H]1O[C@@H]2[C@H](O)[C@@H]1O |  | Huh7 |  | 86.1 µM